Results of unrelated studies side by side (data: NIAID ChemDB).

All rows: cytotoxicity tests; cells: HepG2; endpoint: CC50

Blank or dashed fields: not listed here.

compound,read by,result
CC(=O)c1cccc(NC(=O)/C=C/c2ccc([N+](=O)[O-])cc2)c1,MTT,>160 µg/mL
CC(C)OC(=O)[C@H](C)N[P@](=O)(OC[C@H]1O[C@@](C#N)(c2ccc3c(N)ncnn23)[C@](C)(O)[C@@H]1OC(=O)C(C)C)Oc1ccccc1,ATP,66 µM
CC(=O)/C(=C/C=C/c1ccccc1)[N+](=O)[O-],MTT,>160 µg/mL
Cc1cccc(NC(=O)c2cccc(CN3C(=O)CNC3=O)c2)c1,XTT,41.3 µM
CC(=O)c1cc([N+](=O)[O-])c(N2CCC(C)CC2)s1,resazurin,61 µg/mL
O=C(N/N=C/CC12CC3CC(CC(C3)C1)C2)c1ccncc1,luminescence,40.1 µg/mL
CC(=O)Oc1ccccc1C(=O)OC1O[C@@H]2OC3(C)CCC4[C@H](C)CCC([C@H]1C)[C@]42OO3,ATP / luminescence,>26 µM
C=C1C2C[C@]3(O)C=C4C=CC(=O)OC(C)(C)C4[C@H](O)CC3[C@]2(C)CCC1(O)C(C)C1CC=C(C)C(=O)O1,MTT,20.44 µM
C[C@H](Cn1cnc2c(N)ncnc21)OCP(=O)(O)O,neutral red,399 µM
CC/C=C\C[C@H]1C(=O)CC[C@@H]1CC(=O)O,ATP,>26 µM
CN(C)c1ccc(/C=c2\s/c(=C/C(=O)c3ccccc3)[nH]c2=O)cc1,MTT,92.91 µg/mL
CC1(C)CC[C@]2(C(=O)O)CC[C@]3(C)C(=CC[C@@H]4[C@@]5(C)C[C@@H](O)[C@H](O)C(C)(C)[C@@H]5CC[C@]43C)[C@@H]2C1,ATP,>26 µM
O=c1cc(N2CCN(CC3CCCCC3)CC2)sc2c([N+](=O)[O-])cc(C(F)(F)F)cc12,MTT,>64 µg/mL
Nc1nc2c(ncn2[C@H]2CO[C@@H](CO)O2)c(=O)[nH]1,,>50 µM
NNC(=O)c1ccncc1,luminescence,>100 µg/mL
CC/C=C\C[C@@H]1[C@@H](CC(=O)OC)CC[C@@H]1O,ATP,>26 µM
Cc1cn([C@H]2C=C[C@@H](CO)O2)c(=O)[nH]c1=O,ATP,1042 µM
O=C1OCc2c1cc1ccc3c(c1c2-c1ccc2c(c1)OCO2)OCO3,,26 µM
O=C(N/N=C/c1ccc(C23CC4CC(CC(C4)C2)C3)cc1)c1ccncc1,luminescence,18.7 µg/mL
C/C(=C/CC[C@@H](C)[C@H]1CC[C@@]2(C)C3CCC4C(C)(C)C(=O)CC[C@@]45CC35CC[C@]12C)C(=O)O,MTT,36.67 µM
OCCNc1nc(NCCCCNc2ccnc3cc(Cl)ccc23)nc(N2CCCCC2)n1,,40.9 µM
COc1ccc(-n2c(O)c(/C=C3\C=CC=N3)c(=O)[nH]c2=O)cc1,MTT,>160 µg/mL
CC1=CCC(C(C)C2=CC[C@]3(C)C(=C2C)C[C@]2(O)C=C4C=CC(=O)OC(C)(C)C4[C@H](O)CC23)OC1=O,MTT,20.03 µM
Nc1nc2c(ncn2[C@H]2CO[C@@H](CO)O2)c(=O)[nH]1,,>500 µM
CC1(C)CC[C@]2(C(=O)O)CC[C@]3(C)C(=CC[C@@H]4[C@@]5(C)C[C@@H](O)[C@H](O)[C@@](C)(CO)[C@@H]5CC[C@]43C)[C@@H]2C1,ATP,>26 µM
CC1=CCC(C(C)C2=C(C)C3C[C@]4(O)C=C5C=CC(=O)OC(C)(C)C5[C@H](O)CC4[C@]3(C)C=C2)OC1=O,MTT,17.85 µM
COc1ccc(/C=C2/S/C(=N/N=C/c3ccccc3O)NC2=O)cc1,MTT,>40 µg/mL
O=C(O)c1cc2ccc3c(c2c(-c2ccc4c(c2)OCO4)c1CO)OCO3,,26 µM
CC[C@H](/C=C/[C@@H](C)[C@H]1CCC2C3CC=C4C[C@@H](O)CC[C@]4(C)[C@@]3(C)CC[C@@]21C)C(C)C,ATP,>26 µM
Cc1cc(=O)[nH]c(N/N=C/c2cc(Cl)cc(Cl)c2O)n1,MTT,225.4 µg/mL
OCc1cc2c(Br)cc3c(c2c(-c2ccc4c(c2)OCO4)c1CO)OCO3,,12 µM
O=C(NCC(c1cccs1)N1CCCCC1)c1cccs1,MTT,>80 µg/mL
CC1CCN(c2sc([N+](=O)[O-])cc2[N+](=O)[O-])CC1,resazurin,8.9 µg/mL
COc1ccc(Nc2cc(C)nc3c2ccc2ccccc23)cc1OC,cell count / luminescence,6.5 µM
O=C(O)c1c(CO)cc2ccc3c(c2c1-c1ccc2c(c1)OCO2)OCO3,,>30 µM
CCCCCCCCCC(=O)OC1O[C@@H]2OC3(C)CCC4[C@H](C)CCC([C@H]1C)[C@]42OO3,ATP / luminescence,>26 µM
CC(NCC(O)COc1ccccc1C(C)(C)C)c1ccccc1,cell count / luminescence,>27.3 µM
O=C(N/N=C/C12CC3CC(C1)CC(C1CCCC1)(C3)C2)c1ccncc1,luminescence,37.5 µg/mL
C[C@@H]1CCC2[C@@H](C)[C@@H](OCCN3CCNCC3)O[C@@H]3OC4(C)CCC1[C@@]23OO4,ATP / luminescence,>28.9 µM
Cc1cn([C@H]2C[C@H](N=[N+]=[N-])[C@@H](CO)O2)c(=O)[nH]c1=O,,3 µM
Cc1ccc(OCC(O)CN2CCc3ccccc3C2)c(C(C)(C)C)c1,cell count / luminescence,>29.6 µM
CC1CCCC23CC4C(CC12C)C4(C)C3,ATP,>26 µM
CC1CCN(c2ccc([N+](=O)[O-])s2)CC1,resazurin,61 µg/mL
O=C(N/N=C/c1ccc(N2CCOCC2)o1)c1ccncc1,MTT,>80 µg/mL
CC(=O)OC(C1C=C(C)C(=O)O1)C(C)C1C2C3(O)OC4(CCC12C)C(=CCC1C(C)(C)OC2CC(=O)OC21C4O)C3=O,MTT,9.5 µg/mL
O=C(N/N=C/C12CC3CC(C1)CC(/C=N/NC(=O)c1ccncc1)(C3)C2)c1ccncc1,luminescence,>100 µg/mL
CC[C@@H](CO)NCCN[C@@H](CC)CO,luminescence,>100 µg/mL
CC/C=C\C[C@H]1C(=O)CC[C@@H]1CC(=O)OC,ATP,>26 µM
CO[C@H]1/C=C/O[C@@]2(C)Oc3c(C)c(O)c4c(O)c(c(/C=N/N5CCN(C)CC5)c(O)c4c3C2=O)NC(=O)/C(C)=C\C=C\[C@H](C)[C@H](O)[C@@H](C)[C@@H](O)[C@@H](C)[C@H](OC(C)=O)[C@@H]1C,resazurin,>100 µg/mL
Nc1nc(NC2CC2)c2ncn([C@H]3C=C[C@@H](CO)C3)c2n1,neutral red,320 µM
CC(C)OC(=O)[C@H](C)N[P@](=O)(CO[C@H](C)Cn1cnc2c(N)ncnc21)Oc1ccccc1,ATP,6.9 µM

Rows are shuffled and stem from different studies. CCn is the concentration with n% toxicity to the cells.